Results of unrelated studies side by side (data: NIAID ChemDB).

Shared fields: host cell toxicity; cells: L929; measure: CC50

Lines come from different laboratories, so protocols vary. CCn is the concentration with n% toxicity to the cells. An empty or dashed field is not shown.

structure,read by,result
CSc1nc(Cl)c([N+](=O)[O-])c(N2CC[N+]3(CC2)CC[N+]2(CCN(c4nc(SC)nc(Cl)c4[N+](=O)[O-])CC2)CC3)n1,-,>263.7 µg/mL
C[C@@H](COc1cc(N)nc(N)n1)OCP(=O)(O)O,-,<10 µM
O=C(CC1NCCC[C@@H]1O)Cn1cnc(-c2ccccc2)cc1=O,MTT,29.4 µg/mL
CSc1nsc(-c2ccccc2)c1C(N)=O,-,250 µg/mL
Cc1cc(OCCOCP(=O)(O)O)nc(N)n1,-,<10 µM
O=[N+]([O-])c1c(C2CCCCCC2)ncnc1N1CC[N+]2(CC1)CC[N+]1(CCN(c3ncnc(C4CCCCCC4)c3[N+](=O)[O-])CC1)CC2,-,>271.1 µg/mL
N#CCSc1nsc(-c2ccccc2)c1C#N,-,10 µg/mL
CN(C)c1cc(=O)n(CCOCP(=O)(O)O)c(N)n1,-,<10 µM
CN(C)c1nsc(-c2ccccc2)c1C#N,-,15 µg/mL
CN(C)c1cc(OCCOCP(=O)(O)O)nc(N)n1,-,<10 µM
O=C(CC1NCCC[C@@H]1O)Cn1cncc(-c2ccccc2)c1=O,MTT,6.3 µg/mL
O=C(CCCl)NN1CC[N+]2(CC1)CC[N+]1(CCN(NC(=O)CCCl)CC1)CC2,-,>393.5 µg/mL
CCc1ncn(CC(=O)CC2NCCC[C@@H]2O)c(=O)c1CC,MTT,72.3 µg/mL
Nc1cc(OCCOCP(=O)(O)O)ncn1,-,<10 µM
Cc1cc(Cl)c([N+](=O)[O-])c(N2CC[N+]3(CC2)CC[N+]2(CCN(c4nc(C)cc(Cl)c4[N+](=O)[O-])CC2)CC3)n1,-,>313.3 µg/mL
O=C(C[C@H]1NCCC[C@@H]1O)Cn1cnc2c(c1=O)CCC2,MTT,>100 µg/mL

The last 2 rows once more:

structure	read by	result
Cc1cc(Cl)c([N+](=O)[O-])c(N2CC[N+]3(CC2)CC[N+]2(CCN(c4nc(C)cc(Cl)c4[N+](=O)[O-])CC2)CC3)n1	-	>313.3 µg/mL
O=C(C[C@H]1NCCC[C@@H]1O)Cn1cnc2c(c1=O)CCC2	MTT	>100 µg/mL